In patent US5001048A (priority 1987, dated 1991):

Assays:
[1] = test system: immobilized acetylcholine receptor (AChR); assay: AChR sensor alternating current impedance response to agent challenge; type: binding, Electrophorus electricus; details: for AChR sensor response: 50 to 100 uL
[2] = Control sensor (same formulation, no AChR added) impedance response to agent challenge; details: 50 to 100 uL

With alpha-bungarotoxin the “% Change of AChR sensor with respect to control” value (shortened to “% Change of AChR sensor”) ([1]; agent 5 ug/ml) was 0%, the AChR sensor response ([1]; agent 5 ug/ml) was 42 K.OMEGA and the “% Change of AChR sensor” value ([1]; agent 50 ug/ml) was 48%. For the same substance, the AChR sensor response ([1]; agent 50 ug/ml) was 34 K.OMEGA, the “% Change of AChR sensor” value ([1]; agent 500 ug/ml) was 108% and the AChR sensor response ([1]; agent 500 ug/ml) was 27 K.OMEGA. The Control sensor response ([2]; agent 5 ug/ml) was 42 K.OMEGA, the Control sensor response ([2]; agent 50 ug/ml) was 23 K.OMEGA and the Control sensor response ([2]; agent 500 ug/ml) was 13 K.OMEGA.
